Data as given in publication PMC4958397, “Synthesis, antibacterial and antiproliferative potential of some new 1-pyridinecarbonyl-4-substituted thiosemicarbazide derivatives” (Medicinal Chemistry Research, 2016).

Assays:
Assay in all cases: Broth microdilution MIC
Format in all cases: cell-based
[1] = tested on: Streptococcus sanguinis PCM 2335; settings: CC50 in BJ cells / MIC S. sanguinis
Source text: (§1) Panel reference strains of bacteria from the American Type Culture Collection or Polish Collection of Microorganisms, including aerobic Gram-positive bacteria: Staphylococcus aureus ATCC 25923 and Staphylococcus epidermidis ATCC 12228, and aerobic Gram-negative bacteria: Escherichia coli ATCC 25922 and Pseudomonas aeruginosa ATCC 9027, as well as microaerobic Gram-positive bacteria: Lactobacillus spp., Lactobacillus acidophilus PCM 2105, Streptococcus mutans PCM 2502 and Streptococcus sanguinis PCM 2335, were used. Microbial suspensions with an optical density of 0.5 McFarland standard at 1.5 × 10^8 CFU/mL (CFU: colony forming unit) were prepared in sterile 0.9 % NaCl. Mueller–Hinton (M–H) broth and M–H agar (Oxoid Ltd., England) for aerobic strains, and MRS Broth Lactobacillus, MRS Agar Lactobacillus (BioMaxima S.A., Poland), BHI Broth and BHI agar (BioMaxima S.A., Poland) for microaerobic strains were used in the microbial tests.
(§2) A broth microdilution method was used to evaluate the minimum inhibition concentration (MIC) according to the CLSI document (CLSI performance standards for antimicrobial susceptibility testing, 2008, Eighteenth International Supplement, CLSI document M7-MIC, Clinical Laboratory Standards Institute, Wayne) with some modifications. […] A serial doubling dilution of the compounds was prepared in 96-well plates (200 μL per well). A suitable medium (M-H Broth, MRS Broth Lactobacillus, BHI Broth) was used as a diluent. The final concentrations of derivatives were 1000–0.015 μg/mL. Finally, 2 μL of inoculum of the tested bacterial strain (1.5 × 10^8 CFU/mL) was added to each well. The tests were performed either at 36 °C for 18 h (aerobic strains) or at 40 h (microaerobic strains). After incubation, the panel was digitally analyzed at 600 nm using the microplate reader Bio Tech Synergy (USA) with a dedicated software system. The growth intensity in each well was compared with the negative and positive controls.

[2] = tested on: Escherichia coli ATCC 25922; settings: CC50 in BJ cells / MIC E. coli
Source text: as §1, §2

[3] = tested on: Streptococcus mutans PCM 2502; settings: CC50 in BJ cells / MIC S. mutans
Source text: as §1, §2

[4] = tested on: Staphylococcus aureus ATCC 25923; settings: CC50 in BJ cells / MIC S. aureus
Source text: as §1, §2

[5] = tested on: Lactobacillus acidophilus PCM 210; settings: CC50 in BJ cells / MIC L. acidophilus
[6] = tested on: Pseudomonas aeruginosa ATCC 9027; settings: CC50 in BJ cells / MIC P. aeruginosa
Source text: as §1, §2

[7] = tested on: Lactobacillus spp.; settings: CC50 in BJ cells / MIC Lactobacillus spp.
Source text: as §1, §2

Compound: CSc1ccc(NC(=S)NNC(=O)c2cccnc2)cc1 [Compound 6, 4-(4-Methylthiophenyl)-1-(pyridin-3-yl)carbonylthiosemicarbazide]
- TI (therapeutic index, CC50/MIC), S.s. [1]: 58.7
- TI (therapeutic index, CC50/MIC), E.c. [2]: 14.68
- TI (therapeutic index, CC50/MIC), S.m. [3]: 3.67
- TI (therapeutic index, CC50/MIC), S.a. [4]: 3.67

Compound: [H]/N=C(\N/C(=N/[H])NCCCCCCNC(=N)NC(=N)Nc1ccc(Cl)cc1)Nc1ccc(Cl)cc1 [CLX, chlorhexidine digluconate, reference compound]
- TI (therapeutic index, CC50/MIC), L.a. [5]: 8.66
- TI (therapeutic index, CC50/MIC), S.s. [1]: 1.08
- TI (therapeutic index, CC50/MIC), P.a. [6]: 0.54
- TI (therapeutic index, CC50/MIC), E.c. [2]: 17.33
- TI (therapeutic index, CC50/MIC), S.m. [3]: 17.33
- TI (therapeutic index, CC50/MIC), L.spp. [7]: 34.6
- TI (therapeutic index, CC50/MIC), S.a. [4]: 17.33

Compound: O=C(NNC(=S)Nc1ccc(Cl)cc1Cl)c1cccnc1 [Compound 7, 4-(2,4-Dichlorophenyl)-1-(pyridin-3-yl)carbonylthiosemicarbazide]
- TI (therapeutic index, CC50/MIC), S.m. [3]: 0.18

Compound: O=C(NNC(=S)Nc1ccccc1Cl)c1ccccn1 [Compound 2, 4-(2-Chlorophenyl)-1-(pyridin-2-yl)carbonylthiosemicarbazide]
- TI (therapeutic index, CC50/MIC), L.a. [5]: 0.36
- TI (therapeutic index, CC50/MIC), S.s. [1]: 0.09
- TI (therapeutic index, CC50/MIC), E.c. [2]: 0.36
- TI (therapeutic index, CC50/MIC), S.m. [3]: 0.09
- TI (therapeutic index, CC50/MIC), L.spp. [7]: 0.72
- TI (therapeutic index, CC50/MIC), S.a. [4]: 0.72

Compound: O=C(NNC(=S)Nc1ccccc1F)c1ccccn1 [Compound 1, 4-(2-Fluorophenyl)-1-(pyridin-2-yl)carbonylthiosemicarbazide]
- TI (therapeutic index, CC50/MIC), L.a. [5]: 1.70
- TI (therapeutic index, CC50/MIC), S.s. [1]: 0.43
- TI (therapeutic index, CC50/MIC), P.a. [6]: 0.43
- TI (therapeutic index, CC50/MIC), E.c. [2]: 3.41
- TI (therapeutic index, CC50/MIC), S.m. [3]: 0.85
- TI (therapeutic index, CC50/MIC), L.spp. [7]: 6.83
- TI (therapeutic index, CC50/MIC), S.a. [4]: 6.82

Compound: O=C(NNC(=S)Nc1ccc(Cl)cc1Cl)c1ccncc1 [Compound 10, 4-(2,4-Dichlorophenyl)-1-(pyridin-4-yl)carbonylthiosemicarbazide]
- TI (therapeutic index, CC50/MIC), L.a. [5]: 0.28
- TI (therapeutic index, CC50/MIC), S.m. [3]: 1.12
- TI (therapeutic index, CC50/MIC), S.a. [4]: 2.25

Compound: CCOc1ccc2nc3cc(N)ccc3c(N)c2c1 [Ethacridine lactate, ethacridine lactate, reference compound]
- TI (therapeutic index, CC50/MIC), L.a. [5]: 0.22
- TI (therapeutic index, CC50/MIC), S.m. [3]: 0.11
- TI (therapeutic index, CC50/MIC), S.a. [4]: 0.22

Compound: O=C(NNC(=S)Nc1ccc(Cl)cc1Cl)c1ccccn1 [Compound 4, 4-(2,4-Dichlorophenyl)-1-(pyridin-2-yl)carbonylthiosemicarbazide]
- TI (therapeutic index, CC50/MIC), L.a. [5]: 0.62
- TI (therapeutic index, CC50/MIC), S.s. [1]: 2.50
- TI (therapeutic index, CC50/MIC), E.c. [2]: 0.31
- TI (therapeutic index, CC50/MIC), S.m. [3]: 0.62
- TI (therapeutic index, CC50/MIC), L.spp. [7]: 0.62
- TI (therapeutic index, CC50/MIC), S.a. [4]: 0.62

Compound: CSc1ccc(NC(=S)NNC(=O)c2ccccn2)cc1 [Compound 5, 4-(4-Methylthiophenyl)-1-(pyridin-2-yl)carbonylthiosemicarbazide]
- TI (therapeutic index, CC50/MIC), L.a. [5]: 0.10
- TI (therapeutic index, CC50/MIC), S.s. [1]: 1.53
- TI (therapeutic index, CC50/MIC), E.c. [2]: 0.38
- TI (therapeutic index, CC50/MIC), S.m. [3]: 1.53
- TI (therapeutic index, CC50/MIC), L.spp. [7]: 0.09
- TI (therapeutic index, CC50/MIC), S.a. [4]: 0.19
